Laboratory results as given in patent publication US20210363204A1.

What follows are binders tested against human Nav1.5 (human), Q14524 (assay: cell-based or functional assay).
Binder GPRCQKWMQTCDAERKCCEGFVCRLWCKKKLW (modifications not checked) [Protoxin-II variant NV1D2772] has a hNav1.5 QPatch IC50 of over 3000 nM. For GPSCQKWMQTCDAERKCCEGFVCRLWCKKKLW (modifications not checked) [Protoxin-II variant NV1D2773], the hNav1.5 QPatch IC50 was over 3000 nM. Work on GPQCQKWMQTCDRERKCCEGFVCTLWCRKKLW (modifications not checked) [Protoxin-II variant NV1D3034] yielded a hNav1.5 QPatch IC50 of over 1000 nM.

These binders were tested against human Nav1.1 (human), P35498 (assay: cell-based or functional assay).
With GPYCQKWMQTCDVERKCCEGMVCRLWCKKKLL (modifications not checked) [64053301] the Nav1.1 IC50, QPatch was 15300 nM. YCQKWMQTCDSERKCCNGMVCRLWCKKKLL (modifications not checked) [64053327] was tested, and the Nav1.1 IC50, QPatch was 6390 nM. GPYCQKWMQTCDSERKCCLGMVCRLWCKKKLL (modifications not checked) [64053275] was tested, and the Nav1.1 IC50, QPatch was 3870 nM.

Each binder was assayed against human Nav1.4 (human), P35499 (assay: cell-based or functional assay).
GPYCQKWMQTCDVERKCCEGMVCRLWCKKKLL (modifications not checked) [64053301] showed a Nav1.4 IC50, QPatch of 2240 nM. YCQKWMQTCDSERKCCNGMVCRLWCKKKLL (modifications not checked) [64053327] gave a Nav1.4 IC50, QPatch of 3870 nM. In the case of GPYCQKWMQTCDSERKCCLGMVCRLWCKKKLL (modifications not checked) [64053275], the Nav1.4 IC50, QPatch is reported as 2220 nM. GPYCQKWMWTCDSERKCCEGMVCRLWCKKKLF (modifications not checked) [NV1G2182] showed a Nav1.4 IC50, QPatch of 732 nM.

Each binder was assayed against human Nav1.7 (human), Q15858 (assay: cell-based or functional assay).
For GPYCQKWMQTCDSERKCCEGMVCRLWCKKKLL (modifications not checked) [63955918], the hNav1.7 QPatch % blk at 10 nM was 38.5% and the hNav1.7 QPatch IC50 was 10.8 nM. GPYCQKWMQTCDVERKCCEGMVCRLWCKKKLL (modifications not checked) [64053301] was tested, and the hNav1.7 QPatch % blk at 10 nM was 45.8% and the hNav1.7 QPatch IC50 was 10.7 nM. Work on YCQKWMQTCDSERKCCNGMVCRLWCKKKLL (modifications not checked) [64053327] yielded a hNav1.7 QPatch % blk at 10 nM of 51.9% and a hNav1.7 QPatch IC50 of 7.9 nM. YCQKWMQTCDSERKCCEGMVCRLWCKKKLL (modifications not checked) [64032488] gave a hNav1.7 QPatch % blk at 10 nM of 45.6% and a hNav1.7 QPatch IC50 of 6.5 nM. GPYCQKWMWTCDSERKCCEGMVCRLWCKKKLL (modifications not checked) [NV1G2232] showed a hNav1.7 QPatch % blk at 10 nM of 56.5%, a hNav1.7 QPatch IC50 of 5 nM and a hNav1.7 TETRA IC50 of 16.7 nM. Binder GPYCQKWMQTCDSERKCCLGMVCRLWCKKKLL (modifications not checked) [64053275] has a hNav1.7 QPatch % blk at 10 nM of 48.2% and a hNav1.7 QPatch IC50 of 2.9 nM. GPYCQKWMWTCDSERKCCEGMVCRLWCKKKLF (modifications not checked) [NV1G2182] gave a hNav1.7 QPatch % blk at 10 nM of 54.2% and a hNav1.7 QPatch IC50 of 3.8 nM.

The binders below were run against human Nav1.2 (human), Q99250 (assay: cell-based or functional assay).
For GPYCQKWMQTCDSERKCCEGMVCRLWCKKKLL (modifications not checked) [63955918], the Nav1.2 IC50, QPatch was 1950 nM. GPYCQKWMQTCDVERKCCEGMVCRLWCKKKLL (modifications not checked) [64053301] gave a Nav1.2 IC50, QPatch of 19400 nM. Binder YCQKWMQTCDSERKCCNGMVCRLWCKKKLL (modifications not checked) [64053327] has a Nav1.2 IC50, QPatch of 6660 nM. In the case of YCQKWMQTCDSERKCCEGMVCRLWCKKKLL (modifications not checked) [64032488], the Nav1.2 IC50, QPatch is reported as 1340 nM. GPYCQKWMQTCDSERKCCLGMVCRLWCKKKLL (modifications not checked) [64053275] showed a Nav1.2 IC50, QPatch of 137 nM. GPYCQKWMWTCDSERKCCEGMVCRLWCKKKLF (modifications not checked) [NV1G2182] showed a Nav1.2 IC50, QPatch of 240 nM.

What follows are binders tested against human Nav1.7 (sodium channel protein type 9 subunit alpha) (human), Q15858 (assay: cell-based or functional assay).
With GPRCQKWMQTCDAERKCCEGFVCRLWCKKKLW (modifications not checked) [Protoxin-II variant NV1D2772] the hNav1.7 QPatch IC50 was 6.2 nM.

The binders below were run against human Nav1.6 (human), Q9UQD0 (assay: cell-based or functional assay).
GPYCQKWMQTCDSERKCCEGMVCRLWCKKKLL (modifications not checked) [63955918] showed a Nav1.6 IC50, QPatch of 1990 nM. YCQKWMQTCDSERKCCEGMVCRLWCKKKLL (modifications not checked) [64032488] was tested, and the Nav1.6 IC50, QPatch was 1840 nM. Work on GPYCQKWMWTCDSERKCCEGMVCRLWCKKKLL (modifications not checked) [NV1G2232] yielded a Nav1.6 IC50, QPatch of 563 nM. Work on GPYCQKWMWTCDSERKCCEGMVCRLWCKKKLF (modifications not checked) [NV1G2182] yielded a Nav1.6 IC50, QPatch of 253 nM.
